These results are taken from PMC7616463 (Journal of medicinal chemistry, 2024).

A short description of this series: general procedure: solution-phase peptide synthesis; T3P, NMM. Particulars: late stage modification step.
Take “N-((S)-1-cyclopentyl-2-(((2S,3S)-3-methyl-1-oxo-1-((2-oxo-2-(((R)-1-((3aS,4S,6S, 7aR)-3a,5,5-trimethylhexahydro-4,6-methanobenzo[d][1,3,2]dioxaborol-2-yl)ethyl) amino)ethyl)amino)pentan-2-yl)amino)-2-oxoethyl)-3,5-dimethylbenzamide”: the step yield came out at 64%.
For “N-((S)-1-cyclopentyl-2-(((2S,3S)-3-methyl-1-oxo-1-((2-oxo-2-(((R)-1-((3aS,4S, 6S,7aR)-3a,5,5-trimethylhexahydro-4,6-methanobenzo[d][1,3,2]dioxaborol-2-yl) ethyl)amino)ethyl)amino)pentan-2-yl)amino)-2-oxoethyl)benzamide” the value was 62%; for “((R)-1-(2-((2S,3S)-2-((S)-2-cyclopentyl-2-(thiazole-2-sulfonamido)acetamido)-3-methylpentanamido)acetamido)ethyl)boronic acid”, 75%; for “N-((S)-1-cyclopentyl-2-(((2S,3S)-1-((2-(((R)-2-hydroxy-6-oxo-1,2-oxaborinan-3-yl)amino)-2-oxoethyl)amino)-3-methyl-1-oxopentan-2-yl)amino)-2-oxoethyl)-3,5-dimethylbenzamide (4c)”, 75%.
